The values that follow come from patent US20250333484A1.

Like-named read-outs stand apart in the source and are kept apart here.

The target of assay [1] is 364 aa long N-terminal probe of EBOV GP (Ebola virus variant Mayinga) (UniProt Q05320).
For assay [2] the target is unchanged. This is another data set of the same source.

In the case of Fab114 (Fab of parental mAb114), the Kd in assay [1] and in assay [2] was 0.148 nM each time.
